Assay results reported in patent publication US20260250325A1, “Antiviral Polypeptide Membrane Fusion Inhibitor, and Preparation Method and Application Thereof” (priority 2025, published 2026).

What follows are compounds tested on RSV A long virus strain. Settings: CC50/IC50, HEp-2 cells.
Format: cell-based
Method: In this embodiment, an RSV-A long virus strain was used as an infection virus in the present disclosure. The anti-RSV activity of the synthesized polypeptide was determined through CPE detection.
The inhibitory activity of the compounds of Table 1-1-Table 1-5, positive polypeptide in Table 1-11, and positive control T-118 against the RSV-A long virus strain was detected.
Human Epithelial Pharyngeal Carcinoma Cells (HEp-2) were from the American Type Culture Collection (ATCC), with a catalog number CCL-23. The cells were cultured in a DMEM culture solution in which 10% fetal bovine serum, 1% sodium pyruvate, 1% nonessential amino acids, 2 mM glutamine, 100 U/mL penicillin, and 100 μg/mL streptomycin were added. The RSV A long virus strain was from the ATCC, with a catalog number VR-26.
This study used a plaque reduction experiment to detect the in-vitro activity of a test sample against the RSV A long virus strain. The test sample and a control compound were tested at 8 concentrations in duplicated wells. The HEp-2 cells were digested with trypsin and then diluted to a concentration of 300,000 cells per milliliter by using an experimental culture solution. The diluted cells were added to a 96-well cell test board, with 100 μL per well, corresponding to 30000 cells per well. The cells were cultured overnight in a 37° C. incubator with 5% CO2. On the second day, the test sample was diluted in an experimental culture medium at a fold ratio. The sample diluted at a fold ratio and an equal volume of virus (100 PFU per well) were well mixed and incubated at 37° C. in 5% CO2 for 1 h. Then, the culture solution in the 96-well cell test board was discarded, the sample virus mixed solution (200 μL) was added to the 96-well cell culture plate, and incubated at 37° C. in 5% CO2 for 2 hours. After 2 h, the sample virus mixed solution was discarded, and 200 μL of maintenance culture medium containing 0.8% CMC and the corresponding concentration of the test sample was added. A cell control (cells, without compound treatment or viral infection) and a viral control (cell infection virus, without compound treatment) were set. The cells were cultured for 1 day in the 37° C. incubator with 5% CO2. One day after viral infection, the culture medium was discarded, the cells were fixed with 4% paraformaldehyde, and then permeabilization was performed with 0.5% Triton X-100. After the plate was washed with DPBS, an RSV-specific antibody (RSV antibody, diluted 1:3000) was added and incubated at 37° C. for 1 h. Then, a secondary antibody (donkey anti-goat IgG, diluted 1:500) and incubated at 37° C. for 1 h. The secondary antibody was discarded, a TrueBlue solution was added, dyeing was performed for 10 min; and the plate was washed with running water and then air-dried, and the number of spots in each well was counted by using a microplate imaging counter. Raw data was used for calculating the antiviral activity of the samples.
The raw data for plaque counts and cell viability tests were used for analyzing the antiviral activity and cytotoxicity of the test samples, respectively. A calculation formula was shown as follows.
% inhibition rate=100−(sample value-cell control average value)/(virus control average value-cell control average value)×100%
Non-linear fitting analysis was performed on the inhibition rate of the sample by using GraphPad Prism (version 10), so as to calculate the IC50 and CC50 values for the sample.
IC50: in an in-vitro antiviral activity experiment, IC50 represented an inhibition ability indicator of a compound to be tested against the Hep-2 cells infected by the RSV A long virus strain.

Compared with CC[C@H](C)[C@H](NC(=O)[C@H](CCCCN)NC(=O)[C@H](CCCCN)NC(=O)[C@H](CC(C)C)NC(=O)[C@H](CO)NC(=O)[C@H](CCC(=O)O)NC(=O)[C@H](CCC(=O)O)NC(=O)[C@@H](NC(=O)[C@H](CCCCN)NC(=O)[C@H](CCCCN)NC(=O)[C@H](CC(N)=O)NC(=O)[C@@H](NC(=O)[C@H](CCC(=O)O)NC(=O)[C@H](CCC(=O)O)NC(=O)[C@@H](NC(=O)[C@H](CCCCN)NC(=O)[C@H](CCCCN)NC(=O)[C@H](CCCCN)NC(=O)[C@H](CC(=O)O)NC(=O)[C@H](Cc1ccccc1)NC(=O)[C@H](CCC(=O)O)NC(=O)C(CC(=O)O)NC(C)=O)[C@@H](C)CC)C(C)C)[C@@H](C)CC)C(=O)N[C@@H](CCC(=O)O)C(=O)N[C@@H](CCC(=O)O)C(=O)N[C@@H](CO)C(=O)N[C@@H](CC(=O)O)C(=O)N[C@@H](CCCCN)C(=O)N[C@@H](CCCCN)C(=O)N[C@@H](CC(C)C)C(=O)N[C@@H](CCC(=O)O)C(=O)N[C@@H](CCC(=O)O)C(=O)N[C@H](C(=O)NCC(=O)N[C@@H](CO)C(=O)NCC(=O)N[C@@H](CO)C(=O)NCC(=O)N[C@@H](CCCCNC(=O)CCC(=O)O[C@H]1CC[C@@]2(C)C(=CC[C@H]3[C@@H]4CC[C@H]([C@H](C)CCCC(C)C)[C@@]4(C)CC[C@@H]32)C1)C(N)=O)C(C)C (stereo partly drawn) [Compound 18] (Ac-[ξD]EFDKKKIEEVNKKIEESLKKIEESDKKLEEVGSGSGK(Succinyl(4-O-cholesteryl))-NH2), CC[C@H](C)[C@H](NC(=O)[C@H](CCCCN)NC(=O)[C@H](CCCCN)NC(=O)[C@H](CC(C)C)NC(=O)[C@H](CO)NC(=O)[C@H](CCC(=O)O)NC(=O)[C@H](CCC(=O)O)NC(=O)[C@@H](NC(=O)[C@H](CCCCN)NC(=O)[C@H](CCCCN)NC(=O)[C@H](CC(N)=O)NC(=O)[C@@H](NC(=O)[C@H](CCC(=O)O)NC(=O)[C@H](CCC(=O)O)NC(=O)[C@@H](NC(=O)[C@H](CCCCN)NC(=O)[C@H](CCCCN)NC(=O)[C@H](CC(=O)O)NC(=O)[C@H](Cc1ccccc1)NC(=O)[C@H](CCC(=O)O)NC(=O)C(CC(=O)O)NC(C)=O)[C@@H](C)CC)C(C)C)[C@@H](C)CC)C(=O)N[C@@H](CCC(=O)O)C(=O)N[C@@H](CCC(=O)O)C(=O)N[C@@H](CO)C(=O)N[C@@H](CC(=O)O)C(=O)N[C@@H](CCCCN)C(=O)N[C@@H](CCCCN)C(=O)N[C@@H](CC(C)C)C(=O)N[C@@H](CCC(=O)O)C(=O)N[C@@H](C)C(=O)N[C@@H](C)C(=O)N[C@@H](C)C(=O)N[C@@H](CCCCN)C(=O)N[C@@H](CCCCNC(=O)CCC(=O)O[C@H]1CC[C@@]2(C)C(=CC[C@H]3[C@@H]4CC[C@H]([C@H](C)CCCC(C)C)[C@@]4(C)CC[C@@H]32)C1)C(N)=O (stereo partly drawn) [Compound 17] (Ac-[ξD]EFDKKIEEVNKKIEESLKKIEESDKKLEAAAKK(Succinyl(4-O-cholesteryl))-NH2) is higher in “Safety index (SI)” value: 333 for the first, 1497 for the second.

Going from CC[C@H](C)[C@H](NC(=O)[C@H](CCCCN)NC(=O)[C@H](CCC(=O)O)NC(=O)[C@H](CC(C)C)NC(=O)[C@H](CO)NC(=O)[C@H](CCC(N)=O)NC(=O)[C@H](CC(N)=O)NC(=O)[C@@H](NC(=O)[C@H](CCCCN)NC(=O)[C@H](CCC(=O)O)NC(=O)[C@H](CC(N)=O)NC(=O)[C@@H](NC(=O)[C@H](CCC(N)=O)NC(=O)[C@H](CO)NC(=O)[C@H](C)NC(=O)[C@H](CC(=O)O)NC(=O)[C@H](Cc1ccccc1)NC(=O)[C@@H](NC(=O)[C@H](CC(C)C)NC(=O)[C@H](CCC(=O)O)NC(=O)[C@H](CC(=O)O)NC(=O)[C@H](Cc1ccc(O)cc1)NC(C)=O)C(C)C)C(C)C)[C@@H](C)CC)C(=O)N[C@@H](CCCNC(=N)N)C(=O)N[C@@H](CCCCN)C(=O)N[C@@H](CO)C(=O)N[C@@H](CC(=O)O)C(=O)N[C@@H](CCC(=O)O)C(=O)N[C@@H](CC(C)C)C(=O)N[C@@H](CC(C)C)C(=O)N[C@@H](Cc1c[nH]cn1)C(=O)N[C@@H](CC(N)=O)C(=O)N[C@H](C(=O)NCC(=O)N[C@@H](CO)C(=O)NCC(=O)N[C@@H](CO)C(=O)NCC(=O)N[C@@H](CCCCNC(=O)CCC(=O)O[C@H]1CC[C@@]2(C)C(=CC[C@H]3[C@@H]4CC[C@H]([C@H](C)CCCC(C)C)[C@@]4(C)CC[C@@H]32)C1)C(N)=O)C(C)C [Compound 25] (Ac-YDELVFDASQVNEKINQSLEKIRKSDELLHNVGSGSGK(Succinyl(4-O-cholesteryl))-NH2) to CC[C@H](C)[C@H](NC(=O)[C@H](CO)NC(=O)[C@H](C)NC(=O)[C@H](CC(=O)O)NC(=O)[C@H](Cc1ccccc1)NC(=O)[C@H](CCC(=O)O)NC(=O)[C@H](CC(=O)O)NC(=O)[C@H](Cc1c[nH]c2ccccc12)NC(C)=O)C(=O)N[C@@H](CCC(=O)O)C(=O)N[C@@H](CCC(=O)O)C(=O)N[C@H](C(=O)N[C@@H](CC(N)=O)C(=O)N[C@@H](CCCNC(=N)N)C(=O)N[C@@H](CCCNC(=N)N)C(=O)N[C@H](C(=O)N[C@@H](CCC(=O)O)C(=O)N[C@@H](CCC(=O)O)C(=O)N[C@@H](CO)C(=O)N[C@@H](CC(C)C)C(=O)N[C@@H](CCCNC(=N)N)C(=O)N[C@@H](CCCNC(=N)N)C(=O)N[C@H](C(=O)N[C@@H](CCC(=O)O)C(=O)N[C@@H](CCC(=O)O)C(=O)N[C@@H](CO)C(=O)N[C@@H](CC(=O)O)C(=O)N[C@@H](CCCNC(=N)N)C(=O)N[C@@H](CCCNC(=N)N)C(=O)N[C@@H](CC(C)C)C(=O)N[C@@H](CCC(=O)O)C(=O)N[C@@H](CCC(=O)O)C(=O)N[C@H](C(=O)N[C@@H](CCC(=O)O)C(=O)N[C@@H](C)C(=O)N[C@@H](C)C(=O)N[C@@H](C)C(=O)N[C@@H](CCCCN)C(=O)N[C@@H](CCCCNC(=O)CCC(=O)O[C@H]1CC[C@@]2(C)C(=CC[C@H]3[C@@H]4CC[C@H]([C@H](C)CCCC(C)C)[C@@]4(C)CC[C@@H]32)C1)C(N)=O)C(C)C)[C@@H](C)CC)[C@@H](C)CC)C(C)C [Compound 43] (Ac-WDEFDASIEEVNRRIEESLRRIEESDRRLEEVEAAAKK(Succinyl(4-O-cholesteryl))-NH2), the “Safety index (SI)” value rises from 260 to 671.23.

In the case of CC[C@H](C)[C@H](NC(=O)[C@H](CCCCN)NC(=O)[C@H](CCCCN)NC(=O)[C@H](CC(C)C)NC(=O)[C@H](CO)NC(=O)[C@H](CCC(=O)O)NC(=O)[C@H](CCC(=O)O)NC(=O)[C@@H](NC(=O)[C@H](CCCCN)NC(=O)[C@H](CCCCN)NC(=O)[C@H](CC(N)=O)NC(=O)[C@@H](NC(=O)[C@H](CCC(=O)O)NC(=O)[C@H](CCC(=O)O)NC(=O)[C@@H](NC(=O)[C@H](CCCCN)NC(=O)[C@H](CCCCN)NC(=O)[C@H](CC(=O)O)NC(=O)[C@H](Cc1ccccc1)NC(=O)[C@H](CCC(=O)O)NC(=O)[C@H](CC(=O)O)NC(=O)[C@H](Cc1c[nH]c2ccccc12)NC(C)=O)[C@@H](C)CC)C(C)C)[C@@H](C)CC)C(=O)N[C@@H](CCC(=O)O)C(=O)N[C@@H](CCC(=O)O)C(=O)N[C@@H](CO)C(=O)N[C@@H](CC(=O)O)C(=O)N[C@@H](CCCCN)C(=O)N[C@@H](CCCCN)C(=O)N[C@@H](CC(C)C)C(=O)N[C@@H](CCC(=O)O)C(=O)N[C@@H](C)C(=O)N[C@@H](C)C(=O)N[C@@H](C)C(=O)N[C@@H](CCCCN)C(=O)N[C@@H](CCCCNC(=O)CCC(=O)O[C@H]1CC[C@@]2(C)C(=CC[C@H]3[C@@H]4CC[C@H]([C@H](C)CCCC(C)C)[C@@]4(C)CC[C@@H]32)C1)C(N)=O [Compound 13] (Ac-WDEFDKKIEEVNKKIEESLKKIEESDKKLEAAAKK(Succinyl(4-O-cholesteryl))-NH2), the “Safety index (SI)” value is reported as 2358.

CC[C@H](C)[C@H](NC(=O)[C@H](CCCCN)NC(=O)[C@H](CCCCN)NC(=O)[C@H](CC(C)C)NC(=O)[C@H](CO)NC(=O)[C@H](CCC(=O)O)NC(=O)[C@H](CCC(=O)O)NC(=O)[C@@H](NC(=O)[C@H](CCCCN)NC(=O)[C@H](CCCCN)NC(=O)[C@H](CC(N)=O)NC(=O)[C@@H](NC(=O)[C@H](CCC(=O)O)NC(=O)[C@H](CCC(=O)O)NC(=O)[C@@H](NC(=O)[C@H](CCCCN)NC(=O)[C@H](CCCCN)NC(=O)[C@H](CCCCN)NC(=O)[C@H](CC(=O)O)NC(=O)[C@H](Cc1ccccc1)NC(=O)[C@H](CCC(=O)O)NC(=O)[C@H](CC(=O)O)NC(C)=O)[C@@H](C)CC)C(C)C)[C@@H](C)CC)C(=O)N[C@@H](CCC(=O)O)C(=O)N[C@@H](CCC(=O)O)C(=O)N[C@@H](CO)C(=O)N[C@@H](CC(=O)O)C(=O)N[C@@H](CCCCN)C(=O)N[C@@H](CCCCN)C(=O)N[C@@H](CC(C)C)C(=O)N[C@@H](CCC(=O)O)C(=O)N[C@@H](CCC(=O)O)C(=O)N[C@H](C(N)=O)C(C)C [Compound 3] (Ac-DEFDKKKIEEVNKKIEESLKKIEESDKKLEEV-NH2) was tested, and the “Safety index (SI)” value was over 1.81.

Where a SMILES comes first, the peptide text is derived from it. [ ]: non-standard residue; d: D form. The star is where a group is joined. ξ: configuration not given here. Succinyl(4-O-cholesteryl) = CC(C)CCC[C@@H](C)[C@H]1CC[C@H]2[C@@H]3CC=C4C[C@@H](OC(=O)CCC(=O)*)CC[C@]4(C)[C@H]3CC[C@]12C; ξD = NC(CC(=O)O)C(=O)O
